This passage reports TI results from US20070179135A1 (priority 2006, published 2007).

The subject of the data set is HIV-1. The following applies: monocyte/macrophage assay with HIV-1 (p24).
Consider `CCCCCc1cc(O)c2c(c1)OC(C)(C)C1CCC(C(=O)O)=CC21` (stereo not drawn), for which the TI was found to be 9.8.
In turn, `C=C(C)[C@@H]1CCC(C)=C[C@H]1c1c(O)cc(CCCCC)cc1O` [Cannabidiol, reference compound] gave a TI of 2.8.
In the case of `CCCCCc1cc(O)c2c(c1)OC(C)(C)c1ccc(C)cc1-2` [Cannabinol] it was 1.7; in that of `Nc1ccn([C@H]2CC[C@@H](CO)O2)c(=O)n1` [DdC, reference compound], >3,571; in that of `CCO` [EtOH], over 1.67.
The figure for `CCCCCc1cc(O)cc(O)c1` [Olivitol] is 1.119.
